Pooled drug test results. Numbers come from NIAID ChemDB, via PubChem.

Fold resistance has wild type as its base. Rows are shuffled and stem from different studies. A number after MIC or MFC names an inhibition level or a share of isolates. Blank or dashed fields: not listed here. Percent inhibition refers to the dose given; in toxicity tests it is the harm to the cells. ECn is the concentration giving n% inhibition of infection, replication or growth. ICn is the concentration giving n% inhibition.

structure	method	strain or isolate	cells	kind	measure	species	mutations	target	tested at	value
O=C(/C=C/c1ccccc1)Nc1nnc(NCCCn2ccnc2)s1	-	-	-	target	IC50	Human cytomegalovirus	-	Polymerase	-	<25 µM
CCOC(=O)Nc1cc2c(c(N)n1)N=C(c1ccccc1)CCN2	-	-	RK-13	culture	inhibition	Encephalitozoon intestinalis	-	-	0.1 µg/mL	73.2%
O=C1Nc2ccc(Cl)cc2[C@@](C#CC2CC2)(C(F)(F)F)O1	-	-	-	host protein	IC50	Human	-	DNA polymerase beta	-	314.2 µM
O=C(Nc1nnc(NCCCCc2ccccc2)s1)c1ccc(C(F)(F)F)cc1	-	-	-	target	IC50	Human cytomegalovirus	-	Polymerase	-	<25 µM
Cc1cn([C@@H]2O[C@H](CO[Si](C)(C)C(C)(C)C)C3(OS(=O)(=O)C=C3N)[C@H]2O[Si](C)(C)C(C)(C)C)c(=O)n(C)c1=O	nucleotide incorporation / radiometric	-	-	target	fold resistance	HIV	RT-N137K	Reverse transcriptase	-	2.1
CCOC(=O)Nc1cc2oc(=O)c(-c3ccccc3)nc2c(N)n1	-	-	RK-13	culture	inhibition	Encephalitozoon intestinalis	-	-	0.1 µg/mL	26.5%
COc1ccccc1C(=O)Nc1nnc(NCC(c2ccccc2)c2ccccc2)s1	-	-	-	target	IC50	Human cytomegalovirus	-	Polymerase	-	>25 µM
CC(C)=CCOc1cc(NC(=S)c2ccoc2C)ccc1Cl	nucleotide incorporation / radiometric	-	-	target	fold resistance	HIV	RT-N137E	Reverse transcriptase	-	0.29
CCCCCCCC/C=C/CCCCCCCC(=O)Nc1nnc(NCCNC(C)=O)s1	-	-	-	target	inhibition	Human cytomegalovirus	-	Polymerase	25 µM	69.2%
CCOC(=O)Nc1cc2c(c(N)n1)N=C1c3ccccc3CCC1O2.Cl.Cl	-	-	RK-13	culture	inhibition	Encephalitozoon intestinalis	-	-	0.001 µg/mL	12.6%
CCO/N=C/c1ccc(OCCC2CCN(c3ccc(C)nn3)CC2)cc1	neutral red	107E (ICAM-1 receptor group 73)	KB	culture	EC50	Rhinovirus	-	-	-	0.027 µM
C=CCN(C(=O)OCc1ccc([N+](=O)[O-])cc1)C1CCN(CC[C@](C)(CN(C)S(=O)(=O)c2ccccc2)c2ccccc2)CC1	radiometric	-	-	target	IC50	-	CCR5-Y108A	CCR5	-	0.23 µM
C#CC[C@@H](C(=O)N[C@H](/C=C/C(=O)OCC)C[C@@H]1CCNC1=O)n1cccc(NC(=O)c2cc(C)on2)c1=O	cytopathic effect / XTT	Serotype 10	H1-HELA	culture	inhibition	Rhinovirus	-	-	0.089 µM	90%
CC(C)C(=O)N1C[C@H](CN2CCC(c3ccccc3)CC2)[C@@H](c2ccccc2)C1	radiometric	-	-	target	IC50	-	CCR5-W86A	CCR5	-	0.83 µM
COc1cc(NCc2cnc3nc(N)nc(N)c3c2C)cc(OC)c1	-	-	RK-13	culture	inhibition	Encephalitozoon intestinalis	-	-	0.01 µg/mL	56.6%
O=C(Nc1nnc(NC2CCCc3ccccc32)s1)c1ccc([N+](=O)[O-])o1	-	-	-	target	IC50	Human cytomegalovirus	-	Polymerase	-	>25 µM
CCOC(=O)Nc1cc2c(cn1)N=C(c1ccccc1)[C@H](C)N2	-	-	RK-13	culture	inhibition	Encephalitozoon intestinalis	-	-	1 µg/mL	69.7%
CCN(C(=O)OCc1ccccc1)C1CCN(CC[C@](C)(CN(C)S(=O)(=O)c2ccccc2)c2ccccc2)CC1	radiometric	-	-	target	fold resistance	-	CCR5-D276A	CCR5	-	5.75
CCOC(=O)Nc1cc2c(nc(-c3ccccc3)c3nnnn32)c(NC(c2ccccc2)c2ccccc2)n1	-	-	RK-13	culture	inhibition	Encephalitozoon intestinalis	-	-	1 µg/mL	64.6%
Nc1nc2c(ncn2[C@H]2CC[C@@H](COP(=O)(O)OP(=O)(O)OP(=O)(O)O)O2)c(=O)[nH]1	nucleotide incorporation / radiometric	-	-	target	fold resistance	HIV	RT-P140A	Reverse transcriptase	-	26
O=C(Nc1nnc(NCCc2ccccc2)s1)c1ccc(I)cc1	-	-	-	target	IC50	Human cytomegalovirus	-	Polymerase	-	>25 µM
C[C@H](Cc1ccc(O)c(O)c1)[C@@H](C)Cc1ccc(O)c(O)c1	broth dilution	ATCC 10231	-	culture	MIC100	Candida albicans	-	-	-	250 µg/mL
O=C(NC(=O)c1c(F)cccc1F)Nc1cc(Cl)c(OC(F)(F)C(F)C(F)(F)F)cc1Cl	-	-	RK-13	culture	inhibition	Vittaforma corneae	-	-	2.5 µg/mL	30.3%
O=C(Nc1nnc(NCCc2ccccc2)s1)c1ccc(S(=O)(=O)F)cc1	-	-	-	target	IC50	Human cytomegalovirus	-	Polymerase	-	>25 µM
CC(C)=CCN1Cc2cc(Cl)cc3[nH]c(=S)n(c23)C[C@@H]1C	-	-	MT-4	culture	EC95	HIV-1	RT-L74V L100I	-	-	>3 µM
COc1ccc(C(F)(F)F)cc1NCc1cnc2nc(N)nc(N)c2c1C	-	-	RK-13	culture	inhibition	Encephalitozoon intestinalis	-	-	1 µg/mL	78%

Repeating the first 2 entries:

| structure | method | strain or isolate | cells | kind | measure | species | mutations | target | tested at | value |
|---|---|---|---|---|---|---|---|---|---|---|
| O=C(/C=C/c1ccccc1)Nc1nnc(NCCCn2ccnc2)s1 | - | - | - | target | IC50 | Human cytomegalovirus | - | Polymerase | - | <25 µM |
| CCOC(=O)Nc1cc2c(c(N)n1)N=C(c1ccccc1)CCN2 | - | - | RK-13 | culture | inhibition | Encephalitozoon intestinalis | - | - | 0.1 µg/mL | 73.2% |